Library screen at single concentrations

Source: ChEMBL document CHEMBL3988442, “University of Dundee, Small-Polar-MMV Screening Library” (2021).

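Whole-cell growth test on Mycobacterium tuberculosis, read after 3 days in glucose-containing 7H9 medium; the read-out is not stated. Compounds at 500 µM. Direction is inferred from retests: higher values go with more growth inhibition. About 18,000 compounds were tested under these conditions; 7.9% (about 1,400) showed 50% or more at least once.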

The filed quantity is “Percent Effect” (%). How 0% and 100% were set is not recorded. Most values in the screen are low, and negative values occur. The entries come from a sample that favours strong results.

Result for COCc1ccccc1CNC(=O)c1nc(C)ns1 was 72.27%. O=C(CCNC(=O)c1cc[nH]n1)NC1CCCCC1 gave 9.511%. CCn1c(CN2CCC(O)CC2)nnc1[C@H]1C[C@H](N)C1 read 8.943%. For CC(C)(C)OC(=O)N1CCN(C2CCCNC2)C(=O)C1 (configuration not stated) the result was 6.998%.

For CSCc1ccc(C(=O)N(C)Cc2cnccn2)o1 the result was 6.548%. With CCN(CCO)Cc1cc(=O)n2ccsc2n1 the screen gave -10.89%. With CCc1cc(C#N)ccc1NC(=O)N[C@@H]1CCCNC1 the screen gave 38.53%. Result for COc1cc(Br)ccc1CN was 7.963%.

Result for COC(=O)CS(=O)(=O)Cc1ccc(CN)cc1 was -11.04%. O=C(CCNc1nc2ccccc2o1)N1CCCC1 gave -13.94%. For CCCN1CCN(C(=O)c2c(F)cccc2F)CC1 the result was 5.776%. NCc1ccccc1CN1CCC(O)CC1 read -11.64%.

CCCn1cc(C(=O)N2CCCC(C#N)C2)c(C)n1 (configuration not stated) gave -3.234%. Cc1cnccc1CN(C)C(=O)Cc1ccccn1 gave -9.121%. NCCC(=O)N1CCCC(CCc2ccc(F)cc2)C1 (configuration not stated) gave 71.72%. For COCCOc1cc(C)ccc1CN the result was 46.32%.

Result for NCc1ccccc1CN1CCCC1CO (configuration not stated) was 2.002%. NCc1ccc(C(=O)NCCN2CCCC2)cc1 gave -8.209%. COCCn1cnnc1CCNC(=O)c1cnccn1 gave -2.844%. Result for COC(=O)c1ccc(C(=O)Nc2ncccc2O)s1 was 40.51%.

With CCC(CC)(NC(=O)c1noc2c1CCCC2)C(N)=O the screen gave 16.81%. CN(CCCS(C)(=O)=O)Cc1cscn1 read -7.711%. NCCCC(=O)N(Cc1cccc(F)c1)C1CC1 gave 37.53%. With Cc1nccc(C(=O)NC2CCc3nnc(C)n3C2)n1 (configuration not stated) the screen gave 8.554%.

COCC(C)(C#N)NC(=O)c1ccc(C)cc1F (configuration not stated) gave -8.881%. CCOc1ccccc1-n1c(C)cc(=O)[nH]c1=O gave -1.189%. Result for NC(=O)CCS(=O)(=O)CCN1CCCCCC1 was 64.53%. For O=C(C1CCCCO1)N1CCN(c2ccncc2)CC1 (configuration not stated) the result was 11.01%.

Cc1nnc(SCCCN)s1 gave 7.974%. With NS(=O)(=O)N1CCN(CC=Cc2ccc(F)cc2)CC1 the screen gave 52.88%. For CN1CCc2nc(NC(=O)c3cncc(Br)c3)sc2C1 the result was -11.23%. For COc1cc(CCN)ccc1C the result was 54.92%.

CN(C)[C@@H]1CN(C(=O)C2CCC2)C[C@H]1CO gave -19.29%. For NCc1nc(-c2ccccn2)cs1 the result was 21.12%. CCOc1cc(C(=O)OCC(=O)NC)cc(Br)c1OC read -22.14%. Cn1c(=O)oc2ccc(NCc3ccco3)cc21 gave -3.101%.

O=C(NCC(F)(F)F)c1ccc(Cn2cccn2)cc1 read 30.02%. Result for CC(C)CC(NC(N)=O)C(=O)Nc1cc(F)cc(F)c1 (configuration not stated) was 56.34%. Result for NC(=O)N1CCCN(CC2CCCC2)CC1 was 15.55%. For NS(=O)(=O)c1ccc(OCC(F)(F)F)cc1 the result was 18.59%.

COc1ccc(NC(=O)N(CCO)C(C)C)c(C)c1 gave -2.807%. With COC(=O)Nc1cc(OC)c(OC)cc1C(=O)OC the screen gave 12.42%. Result for CC(C)N1CCC2(CC1)Nc1ccccc1NC2=O was 14.59%. CN(CCC(O)c1ccccc1)C(=O)c1cc(Cl)c[nH]1 (configuration not stated) gave 89.89%.

O=C(Oc1nsnc1N1CCCCC1)N1CCOCC1 gave 61.6%. For COc1cc(CNC(=O)Nc2ccnc(C)c2)ccn1 the result was 55.37%. With Cc1ccc(C(C)NC(=O)CN2CCOCC2)nc1 (configuration not stated) the screen gave 9%. With CSCC(C)CNC(=O)c1cnccn1 (configuration not stated) the screen gave -3.443%.

Result for CNS(=O)(=O)c1ccc(C(=O)NCc2ccccc2)o1 was 58.17%. Result for OC(CN1CCn2ccnc2C1)c1cc(F)ccc1F (configuration not stated) was 9.767%.

Once more, the final 6:

O=C(Oc1nsnc1N1CCCCC1)N1CCOCC1 gave 61.6%.
COc1cc(CNC(=O)Nc2ccnc(C)c2)ccn1 gave 55.37%.
Cc1ccc(C(C)NC(=O)CN2CCOCC2)nc1 (configuration not stated) gave 9%.
CSCC(C)CNC(=O)c1cnccn1 (configuration not stated) gave -3.443%.
CNS(=O)(=O)c1ccc(C(=O)NCc2ccccc2)o1 gave 58.17%.
OC(CN1CCn2ccnc2C1)c1cc(F)ccc1F (configuration not stated) gave 9.767%.